Anti-infective test results gathered from many reports (values: NIAID ChemDB through PubChem).

Shared fields: growth or infection tests; agent: Hepatitis C virus

Conditions beyond the fields shown may differ between rows.

compound,endpoint,strain or isolate,changes,cells,read by,result
C[C@@]1(O)[C@H](O)[C@@H](CO)O[C@H]1N1C=CC(N)NC1=O,EC50,1b,-,Huh7,replicon,2.8 µM
Cc1cc2c(Sc3ccc(N)cc3)cc(=O)n(C)c2cc1C,EC50,-,-,Huh-Luc-Neo,luciferase / replicon,<1 µM
Oc1ccc(C23CCCC2C2(CCCC2)c2ccc(O)cc2O3)c(O)c1,EC50,-,-,Huh7,replicon,4.81 µM
CC(C)N(C(=O)c1ccc(Cl)cc1Cl)c1cc(-c2ccc(-c3cc4ncccn4n3)cc2)sc1C(=O)O,EC50,1a,-,-,replicon / ELISA,0.05–0.1 µM
CN1CCCC/C=C\[C@@H]2C[C@@]2(C(=O)NS(=O)(=O)C2CC2)NC(=O)[C@@H]2C[C@@H](Oc3cc(-c4ccccc4)nc(-c4ccccc4)n3)C[C@H]2C1=O,EC50,1b,-,-,luciferase / reporter gene / replicon,0.2–0.99 µM
CNC(=O)c1c(-c2ccc(F)cc2)oc2cc(-c3nc(C)nn3C)c(OC)cc12,EC50,-,-,Huh7,replicon,<10 µM
CS(=O)(=O)NC(=O)c1c(-c2ccc[nH]c2=O)c2c3occc3c(F)cc2n1Cc1ccc2nc(N)[nH]c2c1,EC50,-,-,-,replicon,<0.5 µM
COc1cccc(CC(=O)N/N=C/c2c(C)cccc2OS(=O)(=O)c2ccc(C(F)(F)F)cc2)c1,EC50,-,-,Huh7,replicon,<5 µM
O=c1[nH]c(=O)n([C@@H]2O[C@H](CO)[C@@H](O)[C@@H]2F)cc1/C=C/Br,EC50,Con1,-,-,replicon,0.02 µM
O=C(O)c1c(-c2ccc[nH]c2=O)c2c3occc3c(F)cc2n1Cc1cc(=O)[nH]cc1F,EC50,-,-,-,replicon,<0.5 µM
Nc1c2n(c(=O)[nH]c1=O)C1OC(CN2)[C@@H](O)[C@H]1O,EC90,-,-,Huh7,replicon,85 µM
O=C(O)c1sc(-c2ccc(-c3cc4ncccn4n3)cc2)cc1N(C(=O)c1ccc(Cl)cc1F)C1CCOCC1,EC50,1a,-,-,luciferase / replicon,0.05–0.1 µM
CC(C)Nc1nccc(O[C@@H]2C[C@H]3C(=O)N[C@]4(C(=O)NS(=O)(=O)C5CC5)C[C@H]4/C=C\CCCCN(C)C(=O)[C@@H]3C2)n1,EC50,1b,-,-,luciferase / reporter gene / replicon,>10 µM
O=C(Cc1cccs1)N/N=C/c1ccccc1OS(=O)(=O)c1ccc(C(F)(F)F)cc1,EC50,-,-,Huh7,replicon,<5 µM
Cn1c(=O)cc(Sc2ccc(Br)cc2)c2ccccc21,EC50,-,-,Huh-Luc-Neo,luciferase / replicon,1–10 µM
CC(C)N(C(=O)c1ccc(Cl)cc1Cl)c1cc(-c2ccc(-c3cc4ncccc4o3)cc2)sc1C(=O)O,EC50,1b,-,-,replicon / ELISA,0.01–0.05 µM
C=CCCCCS(=O)(=O)NC(=O)[C@H](CCC)NC(=O)[C@@H](NC(=O)[C@@H](NC(=O)OC(C)(C)C)C(C)(C)C)c1ccc(Oc2cc(-c3ccccc3)nc3cc(OC)ccc23)c(C=C)c1,EC50,1b replicon,-,-,luciferase / replicon,>10 µM
CC(C)N(C(=O)c1ccc(Cl)cc1Cl)c1cc(-c2ccc(-c3cc4nccc(N)n4n3)cc2)sc1C(=O)O,EC50,1a,-,-,luciferase / replicon,<0.005 µM
CCCCCCCCCCCCCCCC(=O)Nc1ccn([C@H]2CC[C@@H](COP(=O)(O)O[C@H]3C[C@H](n4cc(F)c(=O)[nH]c4=O)O[C@@H]3CO)O2)c(=O)n1,EC50,P114/ET Q80K mutation,-,Huh7,replicon,0.002 µM
N/C(=N\OC(=O)N1CCOCC1)c1ccc(O)cc1,EC50,-,-,Huh7,replicon,4.03 µM
COc1nc(O[C@@H]2C[C@H]3C(=O)N[C@]4(C(=O)NS(=O)(=O)C5(C)CC5)C[C@H]4/C=C\CCCCCNC(=O)N3C2)cc(-c2ccccc2)n1,EC50,1b,-,-,luciferase / reporter gene / replicon,0.2–0.99 µM
Cc1cnccc1Nc1nc(-c2cccc(Cl)c2)nc2ncccc12,EC50,-,-,Huh7,replicon,0.41 µM
COc1cccc(CC(=O)N/N=C/c2ccccc2OS(=O)(=O)c2ccc(-n3cccn3)cc2)c1,EC50,-,-,Huh7,replicon,<5 µM
N/C(=N\OC(=O)N1CCOCC1)c1cccc(C(F)(F)F)c1,EC50,-,-,Huh7,replicon,1.99 µM
COc1cccc(-c2cc(O[C@@H]3C[C@H]4C(=O)N[C@]5(C(=O)NS(=O)(=O)C6(C)CC6)C[C@H]5/C=C\CCCCN(C)C(=O)[C@@H]4C3)nc(OC)n2)c1,EC50,1b,-,-,luciferase / reporter gene / replicon,0.0005–0.199 µM
COc1ccc2c(c1)[C@@H]1C[C@]1(C(=O)N1[C@@H]3CC[C@H]1CN(C)C3)Cn1c-2c(C2CCCCC2)c2ccc(C(=O)N(C)S(=O)(=O)N(C)C)nc21,EC50,1b,-,-,replicon,0.5–10 µM
COc1nc(O[C@@H]2C[C@H]3C(=O)N[C@]4(C(=O)NS(=O)(=O)C5CC5)C[C@H]4/C=C\CCCCN(C)C(=O)N3C2)cc(-c2ccccc2)n1,EC50,1b,-,-,luciferase / reporter gene / replicon,1–10 µM
O=C(CCCc1ccccc1)N/N=C/c1ccccc1OS(=O)(=O)c1ccc(C(F)(F)F)cc1,EC50,-,-,Huh7,replicon,<5 µM
CCOC(=O)c1cnccc1Nc1nc(-c2cc(Cl)ccc2F)nc2ncccc12,EC50,-,-,Huh7,replicon,1.1 µM
COc1nc(O[C@@H]2C[C@H]3C(=O)N[C@]4(C(=O)NS(=O)(=O)C5CC5)C[C@H]4/C=C\CCCCCNC(=O)N3C2)cc(-c2ccccc2)n1,EC50,1b,-,-,luciferase / reporter gene / replicon,1–10 µM
C[C@@]1(O)[C@H](O)[C@@H](CO)O[C@H]1n1ccc(=O)[nH]c1=O,EC50,-,-,Huh7,replicon,34.7 µM
O=C(O)/C=C/c1ccc(NC(=O)C2(NC(=O)c3ccc4c(c3)nc(-c3ccccn3)n4C3CCCCC3)CCCC2)cc1,EC50,1b,-,-,replicon,0.55 µM
COc1ccc(C(=O)O/N=C(\N)Cc2ccc([N+](=O)[O-])cc2)c(OC)c1,EC50,-,-,Huh7,replicon,1.82 µM
CNC(=O)c1c(-c2ccc(F)cc2)oc2ccc(OC(F)F)cc12,EC50,-,-,Huh7,replicon,<10 µM
CCCCCCCC(=O)Oc1cccc(O)c1C(=O)NC(=O)NC1c2ccccc2-c2ccccc21,EC50,JFH1-2a,S282T,Huh7.5.1,luciferase,0.29 µM
CONC(=O)c1cccc[n+]1[O-],EC50,-,-,Huh-luc/neo 7,luciferase / absorbance,6 µM
C=CCc1ccccc1S(=O)(=O)NC(=O)[C@H](CCC)NC(=O)[C@@H](NC(=O)[C@@H](NC(=O)OC(C)(C)C)C(C)(C)C)c1ccc(Oc2cc(-c3ccccc3)nc3cc(OC)ccc23)c(C=C)c1,EC50,1b replicon,-,-,luciferase / replicon,>10 µM
Fc1ccc(Cl)cc1-c1nc(Nc2ccncc2C(F)(F)F)c2cccnc2n1,EC50,-,-,Huh7,replicon,25 µM
O=C(Cc1cc(F)cc(C(F)(F)F)c1)N/N=C/c1ccccc1OS(=O)(=O)c1ccc(C(F)(F)F)cc1,EC50,-,-,Huh7,replicon,<5 µM
COc1ccc2c(c1)C=C(C(=O)N1C[C@@H](C)O[C@@H](C)C1)Cn1c-2c(C2CCCCC2)c2ccc(C(=O)NS(=O)(=O)N(C)C)nc21,EC50,1b,-,-,replicon,0.001–0.5 µM
N/C(=N\OC(=O)N1CCOCC1)c1ccccc1,EC50,-,-,Huh7,replicon,8.62 µM
COCCOCC(=O)Nc1ccc(Sc2cc(=O)n(C)c3ccccc23)cc1,EC50,-,-,Huh-Luc-Neo,luciferase / replicon,<1 µM
COC1=CC(=O)C[C@@H](C)[C@]12Oc1c(Cl)c(OC)cc(OC)c1C2=O,EC50,1b,-,Huh7,-,6.13 µM
CN1CCCC/C=C\[C@@H]2C[C@@]2(C(=O)NS(=O)(=O)C2CC2)NC(=O)[C@@H]2C[C@@H](Oc3ccnc(N4CCOCC4)n3)C[C@H]2C1=O,EC50,1b,-,-,luciferase / reporter gene / replicon,>10 µM
NC(=S)N/N=C/c1ccc(Br)cc1F,EC90,-,-,Huh7 ET,luciferase / reporter gene / replicon,5.93 µM
CNC(=O)c1c(-c2ccc(F)cc2)oc2cc(-c3c(C)nn(C)c3C)c(OC(C)C)cc12,EC50,-,-,Huh7,replicon,<10 µM
O=c1[nH]cccc1-c1c(C2=NS(=O)(=O)c3ccccc3N2)n(Cc2ccccc2F)c2cc(F)c3ccoc3c12,EC50,-,-,-,replicon,<0.5 µM
Clc1cccc(-c2nc(Nc3ccncc3)c3cccnc3n2)c1,EC50,-,-,Huh7,replicon,0.57 µM
CNC(=O)c1c(-c2ccc(F)cc2)oc2cc(-c3cc(COC)on3)c(OC)cc12,EC50,-,-,Huh7,replicon,<1 µM
CS(=O)(=O)Nc1ccc2c(c1)S(=O)(=O)N=C(C1=C(O)[C@@H]3C4CC[C@@H](C4)[C@@H]3N(Cc3ccc(C(F)(F)F)cc3)C1=O)N2,EC50,1b,-,-,replicon,3.3 µM
O=c1[nH]cnc2c1c(-c1ccsc1)cn2[C@@H]1O[C@H](CO)[C@@H](O)[C@H]1O,EC50,1b,-,Huh7,-,4.35 µM
N/C(=N\OC(=O)N1CCOCC1)c1c(Cl)cccc1Cl,EC50,-,-,Huh7,replicon,1.63 µM
CNC(=O)c1c(-c2ccc(F)cc2)oc2cc(N(Cc3cc(C)on3)S(C)(=O)=O)c(OC(C)C)cc12,EC50,-,-,Huh7,replicon,<1 µM
Fc1ccccc1-c1nc2ccn(Cc3ccc(-c4ccc(C(F)(F)F)cc4C(F)(F)F)nn3)cc-2n1,EC50,1b,-,-,replicon,0.0006 µM
COc1ccc(/C(N)=N/OC(=O)N2CCOCC2)cc1OC,EC50,-,-,Huh7,replicon,3.8 µM
Cc1ccc2c(c1)c(Sc1ccc(Cl)cc1)cc(=O)n2C,EC50,-,-,Huh-Luc-Neo,luciferase / replicon,<1 µM
S=C(Nc1ccccc1)Nc1ccc2c(c1)Cc1cc(Br)ccc1-2,EC50,1b,-,Ava5-EG(D4AB)SEAP,replicon,42.84 µM
CCC[C@H](NC(=O)[C@@H]1[C@H]2CCC[C@H]2CN1C(=O)[C@@H](NC(=O)[C@@H](NC(=O)c1cnccn1)C1CCCCC1)C(C)(C)C)C(=O)C(=O)NC1CC1,EC50,WILD TYPE,-,Huh7,replicon,0.354 µM
C[C@@H]1COc2c1ccc1c2c(-c2ccc[nH]c2=O)c(C(=O)NS(=O)(=O)C2CC2)n1Cc1cc(F)ccc1F,EC50,-,-,-,replicon,<0.5 µM
CNC(=O)c1c(-c2ccc(C)c(F)c2)oc2ccc(OC)cc12,EC50,-,-,Huh7,replicon,<10 µM
Nc1nc2ccc(Cn3c(C(=O)O)c(-c4ccc[nH]c4=O)c4c5occc5c(F)cc43)cc2[nH]1,EC50,-,-,-,replicon,<0.5 µM
COc1ccc([C@@H]2Oc3ccc([C@H]4Oc5cc(O)cc(O)c5C(=O)[C@@H]4O)cc3O[C@H]2CO)cc1O,EC50,1b,-,Huh7,replicon,1.3 µM
O=C(Cc1c(F)ccc(F)c1F)N/N=C/c1ccccc1OS(=O)(=O)c1ccc(C(F)(F)F)cc1,EC50,-,-,Huh7,replicon,<5 µM
COc1cc(O[C@@H]2C[C@H]3C(=O)N[C@]4(C(=O)NS(=O)(=O)c5cccs5)C[C@H]4/C=C\CCCCN(C)C(=O)[C@@H]3C2)nc(-c2ccccc2)n1,EC50,1b,-,-,luciferase / reporter gene / replicon,1–10 µM
N/C(=N\OC(=O)N1CCOCC1)c1ccc([N+](=O)[O-])cc1,EC50,-,-,Huh7,replicon,2.61 µM
COc1cccc(CC(=O)N/N=C/c2c(Br)ccc(OC)c2OS(=O)(=O)c2ccc(C(F)(F)F)cc2)c1,EC50,-,-,Huh7,replicon,<5 µM
COc1cc(C2Oc3c(O)cc([C@H]4Oc5cc(O)cc(O)c5C(=O)[C@@H]4O)cc3[C@H]2CO)ccc1O,EC50,1b,-,Huh7,replicon,>100 µM
CNC(=O)c1c(-c2ccc(F)cc2)oc2cc(OC)c(O)cc12,EC50,-,-,Huh7,replicon,>30 µM
Cn1c(=O)cc(Sc2ccc(F)cc2)c2ccccc21,EC50,-,-,Huh-Luc-Neo,luciferase / replicon,1–10 µM
O=S(=O)(Cc1cccc(Cl)c1)N/N=C/c1ccccc1NS(=O)(=O)c1ccc(C(F)(F)F)cc1,EC50,-,-,Huh7,replicon,5–50 µM
COc1ccc2c(c1)c(Sc1ccc(N)cc1)cc(=O)n2C,EC50,-,-,Huh-Luc-Neo,luciferase / replicon,<1 µM
Cc1cc(Br)ccc1C(=O)N(c1cc(-c2ccc(-c3cc4ncccn4n3)cc2)sc1C(=O)O)C(C)C,EC50,1b,-,-,luciferase / replicon,0.05–0.1 µM
O=C(NS(=O)(=O)C1CC1)c1c(-c2ccc[nH]c2=O)c2c3occc3c(F)cc2n1Cc1cc(=O)[nH]cc1F,EC50,-,-,-,replicon,<0.5 µM
Cc1ccc(/C(N)=N/OC(=O)N2CCOCC2)cc1,EC50,-,-,Huh7,replicon,1.55 µM
Cc1cnccc1Nc1nc(-c2cc(Cl)ccc2F)nc2nc(N)ccc12,EC50,-,-,Huh7,replicon,0.67 µM

The last 7 rows once more:

compound	endpoint	strain or isolate	changes	cells	read by	result
Cn1c(=O)cc(Sc2ccc(F)cc2)c2ccccc21	EC50	-	-	Huh-Luc-Neo	luciferase / replicon	1–10 µM
O=S(=O)(Cc1cccc(Cl)c1)N/N=C/c1ccccc1NS(=O)(=O)c1ccc(C(F)(F)F)cc1	EC50	-	-	Huh7	replicon	5–50 µM
COc1ccc2c(c1)c(Sc1ccc(N)cc1)cc(=O)n2C	EC50	-	-	Huh-Luc-Neo	luciferase / replicon	<1 µM
Cc1cc(Br)ccc1C(=O)N(c1cc(-c2ccc(-c3cc4ncccn4n3)cc2)sc1C(=O)O)C(C)C	EC50	1b	-	-	luciferase / replicon	0.05–0.1 µM
O=C(NS(=O)(=O)C1CC1)c1c(-c2ccc[nH]c2=O)c2c3occc3c(F)cc2n1Cc1cc(=O)[nH]cc1F	EC50	-	-	-	replicon	<0.5 µM
Cc1ccc(/C(N)=N/OC(=O)N2CCOCC2)cc1	EC50	-	-	Huh7	replicon	1.55 µM
Cc1cnccc1Nc1nc(-c2cc(Cl)ccc2F)nc2nc(N)ccc12	EC50	-	-	Huh7	replicon	0.67 µM

An empty or dashed field is not shown. Two numbers with a dash give a range or band. ECn is the concentration giving n% inhibition of infection, replication or growth.